A mixed list of measured activities; the numbers were collected in NIAID ChemDB.

Common to all: target-level tests; organism: Hepatitis C virus; protein: HCV NS3 protease

Percent inhibition refers to the dose given; in toxicity tests it is the harm to the cells. Conditions beyond the fields shown may differ between rows. Blank or dashed fields: not listed here. ICn: concentration for n% inhibition.

smiles,endpoint,tested at,result
CC[C@H](NC(=O)[C@@H](NC(=O)[C@@H](NC(=O)[C@H](CC(C)C)NC(=O)[C@@H](CCC(=O)O)NC(=O)[C@H](CC(=O)O)NC(C)=O)[C@@H](C)CC)C1CCCCC1)C(=O)O,inhibition,1 µM,17%
CC[C@H](C)[C@H](NC(=O)[C@H](CC(C)C)NC(=O)[C@@H](CCC(=O)O)NC(=O)[C@H](CCC(=O)O)NC(=O)CCC(=O)O)C(=O)N[C@@H](CC1CCCCC1)C(=O)NC1(c2nn[nH]n2)CC1,Ki,-,0.19 µM
CCC(NC(=O)[C@H](CC(C)C)NC(=O)[C@@H](NC(=O)[C@H](Cc1ccccc1C)NC(=O)[C@H](NC(=O)[C@@H](NC(=O)OCc1ccccc1)C(=O)O)C(C)C)C(C)(C)C)B(O)O,Ki,-,0.08 µM
C/C=C/C(O)[C@H](CC)NC(=O)[C@@H](NC(=O)[C@@H](NC(=O)[C@H](CC(C)C)NC(=O)[C@@H](CCC(=O)O)NC(=O)[C@H](CC(=O)O)NC(C)=O)[C@@H](C)CC)C1CCCCC1,inhibition,10 µM,7%
CC[C@H](C)[C@H](NC(=O)[C@H](CC(C)C)NC(=O)[C@@H](CCC(=O)O)NC(=O)CCC(=O)O)C(=O)N[C@@H](CC1CCCCC1)C(=O)N[C@@H](CS)C(=O)O,Ki,-,0.12 µM
CC[C@H](NC(=O)[C@@H](NC(=O)[C@@H](NC(=O)[C@H](CC(C)C)NC(=O)[C@@H](CCC(=O)O)NC(=O)[C@H](CC(=O)O)NC(C)=O)[C@@H](C)CC)C1CCCCC1)C(=O)/C=C/CCCC(C)C,inhibition,10 µM,95%
CCCC(NC(=O)[C@H](CC1CCCCC1)NC(=O)[C@@H](NC(=O)[C@H](CC(C)C)NC(=O)[C@@H](CCC(=O)O)NC(=O)CCC(=O)O)[C@@H](C)CC)C(=O)C(F)(F)C(F)(F)F,Ki,-,2.9 µM
CC[C@H](NC(=O)[C@@H](NC(=O)[C@@H](NC(=O)[C@H](CC(C)C)NC(=O)[C@@H](CCC(=O)O)NC(=O)[C@H](CC(=O)O)NC(C)=O)[C@@H](C)CC)C1CCCCC1)C(=O)/C=C/c1ccc(OC)cc1,inhibition,1 µM,64%
CCC[C@H](NC(=O)[C@@H]1CCCN1C(=O)[C@@H](NC(=O)[C@@H](NC(=O)[C@H](CC(=O)O)NC(=O)[C@@H](N)CC(=O)O)[C@@H](C)CC)C(C)C)C(N)=O,IC50,-,>1000 µM
C=C(C)N[C@@H](CCC(=O)O)C(=O)N[C@@H](CC(=O)O)C(=O)N[C@H](C(=O)N[C@H](C(=O)N[C@@H](CC)C(=O)N[C@H](C=O)CC)C(C)C)C(C)C,IC50,-,5.5 µM
CC[C@H](NC(=O)[C@@H](NC(=O)[C@@H](NC(=O)[C@H](CC(C)C)NC(=O)[C@@H](CCC(=O)O)NC(=O)[C@H](CC(=O)O)NC(C)=O)[C@@H](C)CC)C1CCCCC1)C(=O)/C=C/c1nccs1,inhibition,1 µM,50%
C=C(C)N[C@@H](CC(=O)O)C(=O)N[C@H](CC(=O)O)C(=O)N[C@H](C(=O)N[C@H](C(=O)N1CCC[C@H]1C(=O)N[C@@H](CS)C(=O)O)C(C)C)[C@@H](C)CC,IC50,-,4 µM
CC[C@H](C)[C@H](NC(=O)[C@H](CC(C)C)NC(=O)[C@@H](CCC(=O)O)NC(=O)CCC(=O)O)C(=O)N[C@@H](CC1CCCCC1)C(=O)NC1(C(=O)C(F)(F)C(F)(F)F)CC1,Ki,-,83 µM
CC[C@H](NC(=O)[C@@H](NC(=O)[C@@H](NC(=O)[C@H](CC(C)C)NC(=O)[C@@H](CCC(=O)O)NC(=O)[C@H](CC(=O)O)NC(C)=O)[C@@H](C)CC)C1CCCCC1)C(=O)CCCCCC(C)C,inhibition,1 µM,31%
CSCC[C@H](NC(=O)[C@H](CCC(=O)O)NC(C)=O)C(=O)N[C@@H](CCC(=O)O)C(=O)N[C@@H](CCC(=O)O)C(=O)N[C@@H](CS)C(=O)O,IC50,-,21 µM
CC[C@H](C)[C@H](NC(=O)[C@H](CC(C)C)NC(=O)[C@@H](CCC(=O)O)NC(=O)[C@H](CCC(=O)O)NC(=O)CCC(=O)O)C(=O)N[C@@H](CC1CCCCC1)C(=O)N[C@@H](Cc1ccccc1)C(=O)O,Ki,-,1.5 µM
CC[C@H](NC(=O)[C@@H](NC(=O)[C@@H](NC(=O)[C@H](CC(C)C)NC(=O)[C@@H](CCC(=O)O)NC(=O)[C@H](CC(=O)O)NC(C)=O)[C@@H](C)CC)C1CCCCC1)C(=O)CCc1ccccc1,inhibition,10 µM,82%
CCC[C@H](NC(=O)[C@@H]1CCCN1C(=O)[C@@H](NC(=O)[C@@H](NC(=O)[C@H](CC(=O)O)NC(=O)[C@@H](N)CC(=O)O)[C@@H](C)CC)C(C)C)C(=O)C(F)(F)F,IC50,-,22 µM
CC[C@H](C)[C@H](NC(=O)[C@H](CC(C)C)NC(=O)[C@@H](CCC(=O)O)NC(=O)CCC(=O)O)C(=O)N[C@@H](CC1CCCCC1)C(=O)N[C@@H](Cc1ccccc1)C(=O)O,Ki,-,30 µM
CSCC[C@H](NC(=O)[C@H](CCC(=O)O)NC(=O)[C@@H](N)CC(=O)O)C(=O)N[C@@H](CCC(=O)O)C(=O)N[C@@H](CCC(=O)O)C(=O)N[C@@H](CS)C(=O)O,Ki,-,0.6 µM
CCC[C@H](NC(=O)[C@@H]1CCCN1C(=O)[C@@H](NC(=O)[C@@H](NC(=O)[C@H](CC(=O)O)NC(=O)[C@@H](N)CC(=O)O)[C@@H](C)CC)C(C)C)C(=O)O,IC50,-,17 µM
CC[C@H](C)[C@H](NC(=O)[C@H](CC(C)C)NC(=O)[C@@H](CCC(=O)O)NC(=O)[C@H](CCC(=O)O)NC(=O)CCC(=O)O)C(=O)N[C@@H](CC1CCCCC1)C(=O)NC1(C(=O)NS(=O)(=O)c2ccccc2)CC1,Ki,-,0.0038 µM

For reference, 2 entries again:

smiles,endpoint,tested at,result
CC[C@H](C)[C@H](NC(=O)[C@H](CC(C)C)NC(=O)[C@@H](CCC(=O)O)NC(=O)CCC(=O)O)C(=O)N[C@@H](CC1CCCCC1)C(=O)N[C@@H](Cc1ccccc1)C(=O)O,Ki,-,30 µM
C=C(C)N[C@@H](CCC(=O)O)C(=O)N[C@@H](CC(=O)O)C(=O)N[C@H](C(=O)N[C@H](C(=O)N[C@@H](CC)C(=O)N[C@H](C=O)CC)C(C)C)C(C)C,IC50,-,5.5 µM